Data taken from paper PMC6242908.
The exact form of at least one protein or probe is not confirmed. For some of these results: A negative result means that nothing was seen under these conditions. For some of these results: At least one verdict was read from the data and is not stated in words by the source. For some of these results: A weaker result is weaker than the reference pair of the same experiment.

Chains of the proteins cited; added tags and fusions are not shown. Lines headed by an entry give the natural chain unless they say otherwise; changes in a name come on top.
UniProt Q57YK5: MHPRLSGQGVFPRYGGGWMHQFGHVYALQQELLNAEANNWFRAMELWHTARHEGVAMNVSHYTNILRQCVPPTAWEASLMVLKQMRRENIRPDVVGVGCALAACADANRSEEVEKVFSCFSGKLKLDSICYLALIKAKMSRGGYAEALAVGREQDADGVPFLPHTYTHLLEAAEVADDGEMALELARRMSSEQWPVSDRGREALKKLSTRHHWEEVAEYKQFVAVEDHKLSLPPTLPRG

Experiments:
[1] = target: MBP-KRIPP11-His6 (Trypanosoma brucei) (UniProt Q57YK5); experiment: FRET; conditions: 50 nM RNA, TAMRA emission rises with protein, quadruplex not disrupted; recombinant protein; protein details: N-terminal MBP with TEV site, C-terminal His6
[2] = target: MBP-KRIPP11-His6 (Trypanosoma brucei) (UniProt Q57YK5); experiment: EMSA; conditions: EMSA: same buffer with BSA and RNAsin, 150 nM RNA/DNA, 2% tris-glycine agarose, recombinant protein, protein details: N-terminal MBP with TEV site, C-terminal His6, label: 5'-fluorescein
[3] = target: MBP-KRIPP11-His6 (Trypanosoma brucei) (UniProt Q57YK5); experiment: fluorescence anisotropy; conditions: FA: 20 mM Tris-HCl pH 7.5, 150 mM KCl, 5 mM MgCl2, 1 mM DTT, 20 nM RNA/DNA, 25 C, recombinant protein, protein details: N-terminal MBP with TEV site, label: 5'-fluorescein

“GGGGGGGGGGGG / GGGGGGGGGGGG [5'-FLUO-G12/G12-TAMRA-3' annealed]”: binds [1].
GGGGGGGGG [G9 RNA]: binds ([2]; intense shifted band).
CCCCCCCCCCCC [C12 RNA]: no binding ([2]; up to 12 uM protein); no binding ([3]; no substantial saturable shift).
“GGGGGGGGGGGG [G12 RNA, thermally denatured]”: binds more weakly ([3]; 95 C then snap cooled, isotherm did not saturate).
AAAAAAAAAAAA [A12 RNA]: no binding ([2]; up to 12 uM protein); no binding ([3]; no substantial saturable shift).
UUUUUUUUUUUU [U12 RNA]: no binding ([2]; up to 12 uM protein); no binding ([3]; no substantial saturable shift).
GGGGGGGGGGGG [dG12]: binds more weakly ([2]; shift only at higher protein, DNA, single-stranded DNA).
GGGGGGGGGGGG [G12 RNA (native)]: binds ([2]; up to 12 uM protein).
GGGGGG [G6 RNA]: no binding ([2]; no stable complex, although FA shows binding).
GGGGGGGGGGGG (double strand) [(G.C)12]: no binding [2].
